In test [1] the target is Sodium channel protein type 4 subunit alpha (Rattus norvegicus, UniProt P15390). As to the kind of experiment: Inhibition of rat Nav1.4 expressed in Xenopus oocytes assessed as blockage of voltage-activated sodium current at holding potential of -100 mV by two-electrode voltage-clamp electrophysiology. As to conditions: oocyte. Background: Two-electrode voltage clamp is typically applied to oocytes expressing channels or transporters.

The chains behind the UniProt entries cited, without tags or fusion partners.
UniProt P15390, whole entry: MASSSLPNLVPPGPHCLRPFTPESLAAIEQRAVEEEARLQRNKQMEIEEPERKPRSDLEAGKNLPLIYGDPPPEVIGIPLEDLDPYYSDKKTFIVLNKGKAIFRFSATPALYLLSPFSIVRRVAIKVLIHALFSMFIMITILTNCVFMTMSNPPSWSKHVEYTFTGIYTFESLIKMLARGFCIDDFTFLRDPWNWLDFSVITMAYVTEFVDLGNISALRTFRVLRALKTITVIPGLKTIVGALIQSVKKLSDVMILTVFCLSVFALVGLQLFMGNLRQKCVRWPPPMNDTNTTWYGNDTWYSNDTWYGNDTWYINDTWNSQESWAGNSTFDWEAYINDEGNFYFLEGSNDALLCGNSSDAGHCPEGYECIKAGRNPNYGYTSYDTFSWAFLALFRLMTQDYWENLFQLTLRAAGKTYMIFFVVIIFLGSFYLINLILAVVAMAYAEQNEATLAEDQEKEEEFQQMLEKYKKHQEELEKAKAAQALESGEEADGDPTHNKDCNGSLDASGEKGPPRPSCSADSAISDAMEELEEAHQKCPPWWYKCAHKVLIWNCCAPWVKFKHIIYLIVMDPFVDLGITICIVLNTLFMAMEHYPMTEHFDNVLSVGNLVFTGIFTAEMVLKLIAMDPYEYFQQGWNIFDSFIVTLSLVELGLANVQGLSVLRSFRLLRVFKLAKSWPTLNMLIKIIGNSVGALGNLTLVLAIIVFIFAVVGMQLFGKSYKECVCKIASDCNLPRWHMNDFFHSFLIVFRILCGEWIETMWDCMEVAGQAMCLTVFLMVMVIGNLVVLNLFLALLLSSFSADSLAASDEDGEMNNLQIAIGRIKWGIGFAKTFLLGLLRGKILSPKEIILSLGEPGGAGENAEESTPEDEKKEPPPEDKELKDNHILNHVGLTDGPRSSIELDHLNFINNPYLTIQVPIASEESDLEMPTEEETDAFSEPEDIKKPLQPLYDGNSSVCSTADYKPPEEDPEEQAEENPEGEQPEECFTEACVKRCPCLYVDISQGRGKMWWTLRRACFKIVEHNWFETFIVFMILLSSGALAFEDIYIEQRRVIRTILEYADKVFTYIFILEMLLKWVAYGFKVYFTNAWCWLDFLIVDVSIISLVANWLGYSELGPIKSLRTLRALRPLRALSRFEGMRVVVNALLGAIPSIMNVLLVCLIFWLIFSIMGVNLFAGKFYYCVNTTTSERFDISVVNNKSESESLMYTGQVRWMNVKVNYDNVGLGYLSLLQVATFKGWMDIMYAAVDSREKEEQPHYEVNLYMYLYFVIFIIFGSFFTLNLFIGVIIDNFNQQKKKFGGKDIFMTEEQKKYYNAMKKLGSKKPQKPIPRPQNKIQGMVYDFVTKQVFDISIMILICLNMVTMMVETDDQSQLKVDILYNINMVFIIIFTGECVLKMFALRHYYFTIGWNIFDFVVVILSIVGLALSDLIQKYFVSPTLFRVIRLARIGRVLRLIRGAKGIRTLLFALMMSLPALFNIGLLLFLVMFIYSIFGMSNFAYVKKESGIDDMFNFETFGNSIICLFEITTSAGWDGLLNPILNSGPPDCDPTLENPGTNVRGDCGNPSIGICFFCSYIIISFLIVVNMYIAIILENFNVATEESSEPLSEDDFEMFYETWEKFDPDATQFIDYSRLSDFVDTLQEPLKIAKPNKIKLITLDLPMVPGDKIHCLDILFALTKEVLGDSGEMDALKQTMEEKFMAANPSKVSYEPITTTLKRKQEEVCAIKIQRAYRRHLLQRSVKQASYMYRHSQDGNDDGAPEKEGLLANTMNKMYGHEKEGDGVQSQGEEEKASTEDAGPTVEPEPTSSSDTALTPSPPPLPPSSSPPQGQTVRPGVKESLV
UniProt Q9WTU3, whole entry: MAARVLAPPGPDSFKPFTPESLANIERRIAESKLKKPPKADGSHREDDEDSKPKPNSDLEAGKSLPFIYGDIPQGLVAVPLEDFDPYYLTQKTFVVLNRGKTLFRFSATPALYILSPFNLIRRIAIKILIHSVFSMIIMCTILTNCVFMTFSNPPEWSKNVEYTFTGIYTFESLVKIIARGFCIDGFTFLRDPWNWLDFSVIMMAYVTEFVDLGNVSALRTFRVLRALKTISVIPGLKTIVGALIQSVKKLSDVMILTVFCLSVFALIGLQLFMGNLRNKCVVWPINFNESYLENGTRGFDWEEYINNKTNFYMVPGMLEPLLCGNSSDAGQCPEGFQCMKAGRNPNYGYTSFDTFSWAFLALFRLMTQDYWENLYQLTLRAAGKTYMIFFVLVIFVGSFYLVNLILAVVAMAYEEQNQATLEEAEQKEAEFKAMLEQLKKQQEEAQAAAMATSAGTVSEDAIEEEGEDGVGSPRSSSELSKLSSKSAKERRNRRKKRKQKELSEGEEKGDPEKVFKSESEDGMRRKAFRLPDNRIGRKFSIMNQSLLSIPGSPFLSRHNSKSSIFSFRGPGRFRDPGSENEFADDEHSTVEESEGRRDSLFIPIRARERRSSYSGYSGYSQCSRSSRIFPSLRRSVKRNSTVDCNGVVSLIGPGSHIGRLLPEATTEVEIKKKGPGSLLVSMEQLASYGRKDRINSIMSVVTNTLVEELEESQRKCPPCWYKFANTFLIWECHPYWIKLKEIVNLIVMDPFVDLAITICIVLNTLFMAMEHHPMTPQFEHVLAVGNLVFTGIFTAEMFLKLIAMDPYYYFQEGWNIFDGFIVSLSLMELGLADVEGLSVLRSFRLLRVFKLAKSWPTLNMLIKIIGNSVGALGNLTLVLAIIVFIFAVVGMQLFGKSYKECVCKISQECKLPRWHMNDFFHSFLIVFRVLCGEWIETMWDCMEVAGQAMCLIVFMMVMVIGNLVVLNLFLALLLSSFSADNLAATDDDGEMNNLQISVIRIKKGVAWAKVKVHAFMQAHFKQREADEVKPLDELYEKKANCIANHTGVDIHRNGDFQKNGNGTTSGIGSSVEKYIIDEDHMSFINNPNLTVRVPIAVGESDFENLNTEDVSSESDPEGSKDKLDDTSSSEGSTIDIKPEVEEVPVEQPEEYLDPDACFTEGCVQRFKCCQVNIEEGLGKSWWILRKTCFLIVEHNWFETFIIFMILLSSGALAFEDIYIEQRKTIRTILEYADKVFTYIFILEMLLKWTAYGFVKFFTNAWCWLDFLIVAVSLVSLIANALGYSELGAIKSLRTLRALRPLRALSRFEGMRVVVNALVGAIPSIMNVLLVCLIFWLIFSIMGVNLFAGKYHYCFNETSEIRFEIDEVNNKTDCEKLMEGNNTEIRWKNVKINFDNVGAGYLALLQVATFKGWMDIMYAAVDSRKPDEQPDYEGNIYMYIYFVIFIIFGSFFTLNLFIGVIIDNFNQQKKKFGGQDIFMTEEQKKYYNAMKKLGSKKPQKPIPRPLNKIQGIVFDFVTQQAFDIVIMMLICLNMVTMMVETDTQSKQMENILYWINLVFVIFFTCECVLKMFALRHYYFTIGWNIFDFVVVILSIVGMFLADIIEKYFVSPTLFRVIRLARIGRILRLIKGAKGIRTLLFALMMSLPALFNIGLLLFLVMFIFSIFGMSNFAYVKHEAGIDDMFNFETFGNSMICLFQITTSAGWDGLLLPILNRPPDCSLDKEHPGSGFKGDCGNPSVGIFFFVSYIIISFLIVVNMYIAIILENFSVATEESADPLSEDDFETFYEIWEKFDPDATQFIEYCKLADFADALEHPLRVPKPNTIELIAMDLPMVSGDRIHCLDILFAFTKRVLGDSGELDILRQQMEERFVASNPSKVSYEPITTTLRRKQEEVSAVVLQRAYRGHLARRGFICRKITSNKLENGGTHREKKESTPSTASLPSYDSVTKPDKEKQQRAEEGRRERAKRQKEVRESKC

The target in test [2] is Sodium channel protein type 8 subunit alpha (Mus musculus, UniProt Q9WTU3). As to the kind of experiment: Inhibition of mouse Nav1.6 expressed in Xenopus oocytes assessed as blockage of voltage-activated sodium current at holding potential of -100 mV by two-electrode voltage-clamp electrophysiology. To be noted: oocyte.

The term IC50 denotes the midpoint of a concentration-inhibition curve.

Consider `CC(=O)N[C@@H](CCCCN)C(=O)N[C@@H](Cc1c[nH]c2ccccc12)C(=O)N[C@H]1CC(=O)NCCCC[C@@H](C(=O)N[C@@H](CCCNC(=N)N)C(N)=O)NC(=O)[C@H](Cc2cnc[nH]2)NC(=O)[C@H](CC(=O)O)NC(=O)[C@H](CCCNC(=N)N)NC1=O`, for which the IC50 was 54.3 µM in test [1] and 39.6 µM in test [2].
